Results of unrelated studies side by side (data: NIAID ChemDB).

An empty or dashed field is not shown. ICn is the concentration giving n% inhibition. Percent inhibition refers to the dose given; in toxicity tests it is the harm to the cells. MIC bound: limit read from a one-dose screen. Conditions beyond the fields shown may differ between rows.

| SMILES | read by | agent | strain | read-out | tested at | protein | kind | result |
|---|---|---|---|---|---|---|---|---|
| O=S(c1cc(Br)ccc1O)c1cc(Br)ccc1O | - | Mycobacterium tuberculosis | H37Rv | MIC | - | - | culture | 25 µg/mL |
| CCCCCCCCCCCCCCCCCCC(CC(=O)OC1C(C)OC(OC2C(C)C(=O)OC(CC)C(C)(O)C(O)C(C)C(=O)C(C)CC(C)(O)C(OC3OC(C)CC(N(C)C)C3O)C2C)CC1(C)OC)C(=O)O | BACTEC | Mycobacterium tuberculosis | H37Rv | MIC | - | - | culture | ≥128 µg/mL |
| O=[N+]([O-])c1c(Cl)ccc2cccnc12 | - | Mycobacterium tuberculosis | H37Rv | MIC | - | - | culture | >100 µg/mL |
| Cc1ccc(-c2cncc(N3CCN(c4ccc(C)cc4)CC3)n2)cc1 | - | Cytomegalovirus | - | inhibition | 10 µM | UL97 kinase | target | >15% |
| Cl.Nc1cccc(N)n1 | - | Mycobacterium tuberculosis | H37Rv | MIC | - | - | culture | >100 µg/mL |
| c1ccc2cc(-c3cncc(N4CCN(CCN5CCCC5)CC4)n3)ccc2c1 | - | Cytomegalovirus | - | IC50 | - | UL97 kinase | target | <1 µM |
| C=CC1=C(C)/C(=C/C2=C(C)C(CCC(=O)O)C(CC3=NC(/C=C4\NC(=O)C(C)=C4C=C)=C(C)C3CCC(=O)O)=N2)NC1=O | BACTEC | Mycobacterium tuberculosis | H37Rv | MIC | - | - | culture | ≥128 µg/mL |
| CC(=O)Oc1cccc2c(C(=O)O)cccc12 | - | Mycobacterium tuberculosis | H37Rv | MIC | - | - | culture | >100 µg/mL |
| COc1cccc(N2CCN(c3cncc(-c4ccoc4)n3)CC2)c1 | - | Cytomegalovirus | - | IC50 | - | UL97 kinase | target | <100 µM |
| CC(O)CCNc1nnc2c3ccccc3n(C)c2n1 | resazurin | Mycobacterium tuberculosis | H37Rv | inhibition | 6.25 µg/mL | - | culture | 40% |
| CCN(C(C)=O)c1ccccc1 | - | Mycobacterium tuberculosis | H37Rv | MIC | - | - | culture | >100 µg/mL |
| COc1ccc(OC)c(-c2cncc(N3CCN(c4ccc(F)cc4)CC3)n2)c1 | - | Cytomegalovirus | - | IC50 | - | UL97 kinase | target | <100 µM |
| O=C1NC(=O)[C@@]2(CC[C@@H](O)C2)c2ccncc21 | BACTEC | Mycobacterium tuberculosis | H37Rv | MIC bound | - | - | culture | >12.5 µg/mL |
| CCOc1ccc(-c2cncc(N3CCN(c4ccccc4OC)CC3)n2)cc1 | - | Cytomegalovirus | - | inhibition | 10 µM | UL97 kinase | target | >15% |
| Cc1ccc(S(=O)(=O)C(CC(=O)c2ccccn2)c2ccccc2)cc1 | - | Mycobacterium tuberculosis | H37Rv | MIC | - | - | culture | >100 µg/mL |
| CSCCCNC(=O)c1csc(-c2csc(CCNC(=O)[C@H](NSc3ccccc3[N+](=O)[O-])[C@H](C)O)n2)n1 | BACTEC | Mycobacterium tuberculosis | H37Rv | inhibition | 12.8 µg/mL | - | culture | 19% |
| c1ccc2c(-c3cncc(N4CCN(c5cnccn5)CC4)n3)cccc2c1 | - | Cytomegalovirus | - | IC50 | - | UL97 kinase | target | <100 µM |
| CCOC(=O)C1=C(c2ccco2)NN=C(c2ccccc2)C1 | BACTEC | Mycobacterium tuberculosis | H37Rv | inhibition | 12.5 µg/mL | - | culture | 34% |
| Fc1ccc(N2CCCCC2)c(NC(=S)c2ccncc2)c1 | kinase activity | - | - | inhibition | 10 µM | Src (T341M) | host protein | 11% |
| COc1ccc2ccc3c4c(c(=O)[nH]c3c2n1)CCC4 | BACTEC | Mycobacterium tuberculosis | H37Rv | MIC bound | - | - | culture | >12.5 µg/mL |
| Cc1ccccc1Sc1ccccc1N | - | Mycobacterium tuberculosis | H37Rv | MIC | - | - | culture | 50 µg/mL |